PubChem BioAssay AID1224833, University of Georgia, 2016

Screen: 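Host factors restraining rotavirus as candidate antiviral genes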 (primary screen)
Cells: monkey MA104 kidney cells
Reagents: siRNA pool against human genes, 50 nM
Duration: 48 h knock-down before infection; read 24 h after infection
Conditions: infection with rotavirus strain RV3 two days after transfection; infectious dose for this stage not given
Detection: 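z-score of rotavirus antigen signal per well, from a fluorescent immunoassay, relative to non-targeting control wells on the same plate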
Direction: z-score vs non-targeting control: higher = more rotavirus replication than with non-targeting control
Rule for the call: In these data the active calls have z-score vs non-targeting control at about -1 or lower, or at about 1 or higher
Meaning of the calls: active = z-score beyond 1 either way; inactive = z-score within 1 of zero
The deposit covers about 12,000 reagents; below is a random part of them. Of all reagents, about 5,600 (46%) got an active call. 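Active calls cover z-scores past 1 in both directions, so they include lowered as well as raised rotavirus replication.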 Unmarked entries are inactive.

Gene	z-score vs non-targeting control
NF1 (neurofibromin 1)	2.53 (active)
NAT2 (N-acetyltransferase 2)	0.674
APOL5 (apolipoprotein L5)	0.821
UGT2B15 (UDP glucuronosyltransferase family 2 member B15)	-3.34 (active)
OR51B2 (olfactory receptor family 51 subfamily B member 2)	0.0675
COL5A2 (collagen type V alpha 2 chain)	-0.184
TIGD5 (tigger transposable element derived 5)	-1.58 (active)
GID4 (GID complex subunit 4 homolog)	-1.31 (active)
FAM9C (family with sequence similarity 9 member C)	-0.893
CPTP (ceramide-1-phosphate transfer protein)	0.579
KRTAP12-2 (keratin associated protein 12-2)	0.325
AP2A1 (adaptor related protein complex 2 subunit alpha 1)	-1.4 (active)
ZNF562 (zinc finger protein 562)	0.0167
CFAP58 (cilia and flagella associated protein 58)	3.32 (active)
CFAP70 (cilia and flagella associated protein 70)	1.61 (active)
SF1 (splicing factor 1)	-1.35 (active)
BRMS1L (BRMS1 like transcriptional repressor)	-0.854
LINC03042 (long independently transcribed non-coding RNA 3042)	0.682
CEP104 (centrosomal protein 104)	-0.073
C1orf210 (chromosome 1 open reading frame 210)	2.49 (active)

Continued; the last 5 above are carried over.
Gene	z-score vs non-targeting control
SF1 (splicing factor 1)	-1.35 (active)
BRMS1L (BRMS1 like transcriptional repressor)	-0.854
LINC03042 (long independently transcribed non-coding RNA 3042)	0.682
CEP104 (centrosomal protein 104)	-0.073
C1orf210 (chromosome 1 open reading frame 210)	2.49 (active)
LMAN1 (lectin, mannose binding 1)	-0.662
ZNF141 (zinc finger protein 141)	-2.35 (active)
ZNF717 (zinc finger protein 717)	-1.79 (active)
EMX1 (empty spiracles homeobox 1)	-1.46 (active)
THY1 (Thy-1 cell surface antigen)	1.35 (active)
GLT6D1 (glycosyltransferase 6 domain containing 1)	-0.0416
AACS (acetoacetyl-CoA synthetase)	4.41 (active)
DACT3 (dishevelled binding antagonist of beta catenin 3)	-0.767
NECAB2 (N-terminal EF-hand calcium binding protein 2)	1.06 (active)
PLA2G2A (phospholipase A2 group IIA)	-1.58 (active)
PPT1 (palmitoyl-protein thioesterase 1)	0.728
MBTD1 (mbt domain containing 1)	-0.313
C9orf43 (chromosome 9 open reading frame 43)	-1.17 (active)
MBD5 (methyl-CpG binding domain protein 5)	-1.17 (active)
MRPS23 (mitochondrial ribosomal protein S23)	-1.42 (active)
GRAP (GRB2 related adaptor protein)	0.5
CFDP1 (chromatin remodeling protein CFDP1)	-0.211
ZBTB42 (zinc finger and BTB domain containing 42)	-0.571
MRM2 (mitochondrial rRNA methyltransferase 2)	-1.01 (active)
PAGE2B (PAGE family member 2B)	1.71 (active)
SURF6 (surfeit 6)	-0.42
ZRANB2 (zinc finger RANBP2-type containing 2)	1.47 (active)
CCNYL1 (cyclin Y like 1)	1.25 (active)
LLGL1 (LLGL scribble cell polarity complex component 1)	-1.95 (active)
CYRIB (CYFIP related Rac1 interactor B)	0.727
